Single amino acid changes in Zika NS2B-NS3 and viral growth

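Pools of virus carrying all single amino acid changes were selected for growth in Huh-7.5 cells. Sequencing of three replicate libraries (two for positions 207-308) was averaged into one effect per change. The aim was to find sites where inhibitor-binding pockets cannot change.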

Chain scanned (Zika virus MR766; NS2B from position 2 to 131, then the start of NS3):
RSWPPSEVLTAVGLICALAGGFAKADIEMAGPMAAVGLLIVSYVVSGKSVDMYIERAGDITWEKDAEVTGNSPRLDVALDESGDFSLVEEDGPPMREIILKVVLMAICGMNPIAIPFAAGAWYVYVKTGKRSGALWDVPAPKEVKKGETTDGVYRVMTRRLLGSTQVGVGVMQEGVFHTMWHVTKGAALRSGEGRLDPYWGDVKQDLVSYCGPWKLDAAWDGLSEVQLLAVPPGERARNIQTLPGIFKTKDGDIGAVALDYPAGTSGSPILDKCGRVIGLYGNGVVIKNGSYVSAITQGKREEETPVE

Scale: log2 effect, wild type = 0; the lower, the more harmful to the virus. A change reads original residue, position, new residue. All changes here are to a stop codon. Six mutants with high scores were retested singly and none clearly outgrew wild type, so positive values are not proof of better growth.

* D202*: -7.50
* V203*: -8.46
* K204*: -8.62
* Q205*: -7.15
* D206*: -8.58
* L207*: -9.43
* V208*: -9.85
* S209*: -8.47
* Y210*: -9.25
* C211*: -7.81
* G212*: -8.93
* P213*: -8.91
* W214*: -9.11
* K215*: -8.56
* L216*: -9.49
* D217*: -8.03
* A218*: -8.15
* A219*: -7.76
* W220*: -8.10
* D221*: -7.34
* G222*: -8.14
* L223*: -7.00
* S224*: -7.57
* E225*: -8.59
* V226*: -6.87
* Q227*: -8.02
* L228*: -5.83
* L229*: -4.94
* A230*: -5.95
* V231*: -7.14
* P232*: -6.44
* P233*: -7.14
* G234*: -7.20
* E235*: -8.68
* R236*: -6.97
* A237*: -5.86
* R238*: -7.51
* N239*: -7.16
* I240*: -8.22
* Q241*: -8.36
* T242*: -7.69
* L243*: -7.68
* P244*: -6.57
* G245*: -8.00
* I246*: -7.34
* F247*: -7.93
* K248*: -8.87
* T249*: -6.96
* K250*: -8.47
* D251*: -7.38
* G252*: -7.79
* D253*: -6.90
* I254*: -7.81
* G255*: -8.53

The first 7 entries again:

D202* read -7.50.
V203* read -8.46.
K204* read -8.62.
Q205* read -7.15.
D206* read -8.58.
L207* read -9.43.
V208* read -9.85.

Positions 1-103, 104-206 and 207-308 were made and measured as separate libraries. Position 1 still belongs to NS2A. In the paper, -1 or higher counts as tolerated. Stop codons (*) centre on -7 and mark the level of dead virus.

The measurements come from Ni et al. 2025 (doi:10.1038/s41467-025-63602-z).